Anti-infective test results gathered from many reports (values: NIAID ChemDB through PubChem).

Common to all: host cell toxicity; measure: CC50

Neighbouring rows are from separate reports. An empty or dashed field is not shown. CCn is the concentration with n% toxicity to the cells.

SMILES,cells,method,result
CC(C)C[C@@H]1NC(=O)[C@H](Cc2c[nH]c3ccccc23)NC(=O)[C@@H](CCCCN)NC(=O)[C@H](CC(C)C)NC(=O)[C@H](C(C)C)NC(=O)[C@@H](CC(C)C)NC1=O,Lung carcinoma cells,MTT,>30 µM
CS[C@@]1(Cc2ccccc2)NC(=O)[C@@](O)(Cc2ccccc2)NC1=O,293T,luminescence,>100 µM
Cc1cc(NS(=O)(=O)c2ccc(NC(=S)Nc3ccc(Br)cc3)cc2)no1,CEM174,MTT,>100 µM
NC(=S)Nc1cccc(OCCCCCCCCc2ccccc2)c1,Ava5-EG(delta4AB)SEAP,MTS,>1 µM
Cc1cc(=O)[nH]c2c1ccc1ncc(C(=O)O)c(C)c12,CAKI-1,-,8 µg/mL
C#CCSc1n[nH]c(-c2cccc(C(F)(F)F)c2)n1,Panc-1,MTT,>100 µg/mL
CCOC(=O)c1ccc(NC(=S)Nc2ccc(S(=O)(=O)Nc3cc(C)on3)cc2)cc1,CEM174,MTT,>100 µM
Cc1ccc(Cl)cc1-c1nc(=S)[nH][nH]1,Panc-1,MTT,>100 µg/mL
CCCCOC(=O)c1ccc(NC(=S)Nc2ccc(S(=O)(=O)Nc3cc(C)on3)cc2)cc1,CEM174,MTT,>100 µM
Nc1ncnc2c1ncn2[C@@H]1C[C@H](CO)[C@@H](O)[C@@H]1O,HELF,-,1.2 µg/mL
COc1ccc(-c2ccc(OCCCCCOc3cccc(NC(N)=S)c3)cc2)cc1,Ava5-EG(delta4AB)SEAP,MTS,>1 µM
CS[C@@]12C[C@@H]3C(=O)C=C[C@H](O)[C@H]3N1C(=O)[C@]1(SC)CC3=CC=C[C@H](O)[C@H]3N1C2=O,293T,luminescence,>100 µM
NC(=S)Nc1cccc(OCCCOc2cccc3ccccc23)c1,Ava5-EG(delta4AB)SEAP,MTS,>1 µM
O=C1[C@H]2Cc3c([nH]c4ccccc34)[C@@H](c3ccc4c(c3)OCO4)N2C(=O)CN1[C@@H]1CCN(CCOc2ccccc2)C1,MRC-5 SV2,resazurin,7.7 µM
CCC(C)[C@@H]1NC(=O)[C@@H](C(C)C)NC(=O)[C@H](CC(C)C)NC(=O)[C@H](Cc2c[nH]c3ccccc23)NC(=O)CNC(=O)[C@H](CC(N)=O)NC1=O,Lung carcinoma cells,MTT,>30 µM
Cc1cn([C@@H]2O[C@H](COC(c3ccccc3)(c3ccccc3)c3ccccc3)C[C@H]2F)c(=O)[nH]c1=O,HL-60,-,>1000 µM
CC(C)C[C@@H]1NC(=O)[C@@H](Cc2c[nH]c3ccccc23)NC(=O)CNC(=O)[C@@H](CC(N)=O)NC(=O)[C@H](C(C)C)NC(=O)[C@@H](CC(C)C)NC1=O,Colorectal carcinoma,MTT,>30 µM
FC(F)(F)c1ccc(Cl)c(-c2nc(=S)[nH][nH]2)c1,Panc-1,MTT,>100 µg/mL
CC(C)C[C@@H]1NC(=O)[C@H](Cc2c[nH]c3ccccc23)NC(=O)[C@@H](CCCN)NC(=O)[C@H](CC(N)=O)NC(=O)[C@H](C(C)C)NC(=O)[C@@H](CC(C)C)NC1=O,Lung carcinoma cells,MTT,>30 µM
Cc1cc(NS(=O)(=O)c2ccc(NC(=S)Nc3ccccc3F)cc2)no1,CEM174,MTT,>100 µM
NC(=S)Nc1cccc(OCCCCCOc2ccncn2)c1,Ava5-EG(delta4AB)SEAP,MTS,>1 µM
CCCN([C@H](CO)CCC[C@H](CC)NC(=O)[C@@H](NC(=O)OC)C(c1ccccc1)c1ccccc1)S(=O)(=O)c1ccc(CO)cc1,T lymphoid cells,microscopy,>10 µM
Oc1ccc(-c2nc(SCC3CC3)n[nH]2)cc1,THP-1,MTT,>100 µg/mL
COC(=O)N[C@H](C(=O)N[C@@H](C)CCC[C@@H](CO)N(C(C)C)S(=O)(=O)c1ccc(N)cc1)C(c1cccc(F)c1)c1cccc(F)c1,T lymphoid cells,microscopy,>10 µM
CC(C)C[C@@H]1NC(=O)[C@H](Cc2c[nH]c3ccccc23)NC(=O)[C@@H](CCCCN)NC(=O)[C@H](CC(=O)O)NC(=O)[C@H](C(C)C)NC(=O)[C@@H](CC(C)C)NC1=O,Colorectal carcinoma,MTT,>30 µM
COC(=O)N[C@H](C(=O)N[C@H](CCC[C@@H](CO)N(CC(C)C)S(=O)(=O)c1ccc(CO)cc1)C(F)(F)F)C(c1ccccc1)c1ccccc1,T lymphoid cells,microscopy,>10 µM
S=C(NCc1ccccc1)Nc1ccc2c(c1)Cc1cc(Br)ccc1-2,Ava5-EG(delta4AB)SEAP,MTS,>1 µM
[N-]=[N+]=N[C@]1(CO)O[C@@H](n2ccc(N)nc2=O)[C@@H](F)[C@@H]1O,Huh-7 (cell line 2209-23),-,>100 µM
Cc1cn([C@@H]2O[C@H](COC(c3ccccc3)(c3ccccc3)c3ccccc3)[C@@H](N=[N+]=[N-])[C@H]2F)c(=O)[nH]c1=O,HL-60,-,>1000 µM
Cc1cc(Cl)ccc1-c1nc(=S)[nH][nH]1,A549,MTT,>100 µg/mL
CCCN([C@H](CO)CCC[C@@H](NC(=O)[C@H](Cc1ccccc1Cl)NC(=O)OC)C(F)(F)F)S(=O)(=O)c1ccc(CO)cc1,T lymphoid cells,microscopy,>10 µM
CC(=O)OC[C@H]1O[C@@H](n2cc(C)c(=O)[nH]c2=O)C[C@@H]1F,HL-60,-,>1000 µM
CCCN([C@H](CO)CCC[C@@H](NC(=O)[C@@H](NC(=O)OC)C(c1ccccc1)c1ccccc1)C1CC1)S(=O)(=O)c1ccc(CO)cc1,T lymphoid cells,microscopy,>10 µM
COc1ccc(OCCCCCOc2cccc(NC(N)=S)c2)cc1,Ava5-EG(delta4AB)SEAP,MTS,>1 µM
C=CCSc1n[nH]c(-c2ccc([N+](=O)[O-])c(C(F)(F)F)c2)n1,Panc-1,MTT,>100 µg/mL
O=C1[C@H]2Cc3c([nH]c4ccccc34)[C@@H](c3ccc4c(c3)OCO4)N2C(=O)CN1[C@@H]1CCN(Cc2ccc3c(c2)OCO3)C1,MRC-5 SV2,resazurin,39 µM
CC(C)C[C@@H]1NC(=O)[C@H](Cc2c[nH]c3ccccc23)NC(=O)[C@@H](CCCCN)NC(=O)[C@H](CC(N)=O)NC(=O)[C@H](C(C)C)NC(=O)[C@@H]2CCCN2C1=O,Lung carcinoma cells,MTT,>30 µM
CCOC(=O)/C=C/[C@H](CCC(N)=O)NC(=O)[C@H](Cc1ccccc1)NC(=O)[C@H](CC(C)C)NC(=O)OCc1ccccc1,H1-HELA,-,>50 µM
CC(C)C[C@@H]1NC(=O)[C@H](Cc2c[nH]c3ccccc23)NC(=O)C(C[C@@H](C)[C@H](N)C(=O)O)NC(=O)[C@H](CC(N)=O)NC(=O)[C@H](C(C)C)NC(=O)[C@@H](CC(C)C)NC1=O,Colorectal carcinoma,MTT,>30 µM
CN(C)c1ccc(CN2CC[C@@H](N3CC(=O)N4[C@H](c5ccc6c(c5)OCO6)c5[nH]c6ccccc6c5C[C@@H]4C3=O)C2)cc1,MRC-5 SV2,resazurin,2 µM
COc1ccc2c(c1)C[C@@H]1C[C@]1(C(=O)N1C[C@H]3CC[C@@H](C1)CN(S(=O)(=O)C(C)C)C3)Cn1c-2c(C2CCCCC2)c2ccc(C(=O)NS(=O)(=O)N(C)C)cc21,HCV replicon cells,resazurin / fluorescence,5 µM
CCCOC(=O)c1ccc(NC(=S)Nc2ccc(S(=O)(=O)Nc3cc(C)on3)cc2)cc1,CEM174,MTT,>100 µM
O=C1[C@H]2Cc3c([nH]c4ccccc34)[C@@H](c3ccc4c(c3)OCO4)N2C(=O)CN1[C@@H]1CCN(CCCCCO)C1,MRC-5 SV2,resazurin,32 µM
CCC(C)Sc1n[nH]c(-c2ccc(C)cc2)n1,Panc-1,MTT,>100 µg/mL
Cc1cn([C@@H]2O[C@H](COC(c3ccccc3)(c3ccccc3)c3ccccc3)[C@@H](OS(C)(=O)=O)[C@@H]2F)c(=O)[nH]c1=O,HL-60,-,>1000 µM
COC(=O)N[C@H](C(=O)N[C@H](CCC[C@@H](CO)N(C(C)C)S(=O)(=O)c1ccc(CO)cc1)C1CC1)C(c1ccccc1)c1ccccc1,T lymphoid cells,microscopy,>10 µM
O=C1[C@H]2Cc3c([nH]c4ccccc34)[C@@H](c3ccc4c(c3)OCO4)N2C(=O)CN1[C@@H]1CCN(Cc2ccccn2)C1,MRC-5 SV2 cells,resazurin,52 µM
COC(=O)N[C@H](C(=O)N[C@@H](C)CCC[C@@H](CO)N(CCC(C)C)S(=O)(=O)c1ccc(CO)cc1)C(c1ccccc1)c1ccccc1,T lymphoid cells,microscopy,>10 µM
CS[C@@]12CC3=CC=C[C@H](O)[C@H]3N1C(=O)[C@]13C[C@H]4C(=O)[C@H](C[C@H](O)[C@H]4N1C2=O)S3,293T,luminescence,>100 µM
Cc1cc(NS(=O)(=O)c2ccc(NC(=S)Nc3ccccc3Cl)cc2)no1,CEM174,MTT,>100 µM
Cc1cn([C@@H]2O[C@H](COC(c3ccccc3)(c3ccccc3)c3ccccc3)C[C@H]2F)c(=O)nc1N,HL-60,-,>1000 µM
CS[C@@]12C[C@H]3C(=O)CC[C@H](O)[C@H]3N1C(=O)[C@]1(SC)CC3=CC=C[C@H](O)[C@H]3N1C2=O,293T,luminescence,>100 µM
CNC(=O)N1C[C@H]2COC[C@@H](C1)CN(C(=O)[C@]13C[C@H]1Cc1cc(OC)ccc1-c1c(C4CCCCC4)c4ccc(C(=O)NS(=O)(=O)C(C)C)cc4n1C3)C2,HCV replicon cells,resazurin / fluorescence,>100 µM

3 of the rows above, restated:

| SMILES | cells | method | result |
|---|---|---|---|
| CC(C)C[C@@H]1NC(=O)[C@H](Cc2c[nH]c3ccccc23)NC(=O)[C@@H](CCCCN)NC(=O)[C@H](CC(=O)O)NC(=O)[C@H](C(C)C)NC(=O)[C@@H](CC(C)C)NC1=O | Colorectal carcinoma | MTT | >30 µM |
| CN(C)c1ccc(CN2CC[C@@H](N3CC(=O)N4[C@H](c5ccc6c(c5)OCO6)c5[nH]c6ccccc6c5C[C@@H]4C3=O)C2)cc1 | MRC-5 SV2 | resazurin | 2 µM |
| CCOC(=O)c1ccc(NC(=S)Nc2ccc(S(=O)(=O)Nc3cc(C)on3)cc2)cc1 | CEM174 | MTT | >100 µM |